From patent publication US20120184020A1, “ENGINEERED MICROORGANISMS WITH ENHANCED FERMENTATION ACTIVITY” (Verdezyne, Inc., priority 2009, published 2012)

Test: Anti-His western blot of xylose isomerase constructs expressed in S. cerevisiae
Design: species or system Saccharomyces cerevisiae
Conditions: His-tagged constructs in p426GPD, S. cerevisiae BY4742

## Piromyces xylose isomerase: xylose isomerase from Piromyces strain E2, SEQ ID NO. 35 [reference compound]
  expression of xylose isomerase in yeast cells (western): expressed in both the soluble and insoluble fractions
Listed as wild type Piromyces xylose isomerase
  expression of xylose isomerase in yeast cells (western): expressed in the soluble fraction
